Each structure is given as a SMILES string. The list shows a part of the results, in another mix than the full data. These assays gave more results; the selection is not random. Calls of active or inactive are those of the source. No cut-off for these calls is given here.

The experiment addresses T1, Aldehyde dehydrogenase 1A1 (Homo sapiens) (UniProt P00352).
T1 sequence (whole entry): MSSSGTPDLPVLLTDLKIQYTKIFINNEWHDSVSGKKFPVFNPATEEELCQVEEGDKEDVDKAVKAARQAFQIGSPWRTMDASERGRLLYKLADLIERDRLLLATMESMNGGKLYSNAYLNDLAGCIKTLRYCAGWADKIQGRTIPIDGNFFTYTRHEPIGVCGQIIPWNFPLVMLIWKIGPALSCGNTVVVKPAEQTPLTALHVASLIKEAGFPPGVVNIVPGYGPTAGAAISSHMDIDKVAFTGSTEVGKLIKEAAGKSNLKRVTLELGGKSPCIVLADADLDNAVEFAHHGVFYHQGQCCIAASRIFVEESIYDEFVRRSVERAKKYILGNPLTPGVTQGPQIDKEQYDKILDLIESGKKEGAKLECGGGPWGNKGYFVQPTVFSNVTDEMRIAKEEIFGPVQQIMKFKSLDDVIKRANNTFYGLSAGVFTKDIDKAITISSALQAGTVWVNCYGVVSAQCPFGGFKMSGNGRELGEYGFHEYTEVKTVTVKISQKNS
Put plainly: qHTS Assay for Inhibitors of Aldehyde Dehydrogenase 1 (ALDH1A1). [Related pubchem assays: 1030 (qHTS Validation Assay for Inhibitors of aldehyde dehydrogenase 1 (ALDH1A1))]. It is filed as functional.
In the case of `NC1CCCCC1.NP(=O)(O)N(CCCl)CCCl`, the Potency entry was “inactive”.
